Data from patent US8916516B2, “Treatment of fungal and/or protist infections” (AI2 Limited, priority 2005, dated 2014).

Assay: Adherence of fluorescently labelled peptide to surfaces (Example 3)
Conditions: fluorescently tagged GIN1p 40 μM, 15 min

Substance: Ac-LRKLRKRLLLRKLRKRLL-NH2 [MU_10]
- retention of peptide on contact lens (fluorescence) (Acuvue lens, after 4 washes incl. overnight soak in 25 ml PBS): retains a significant quantity of peptide
- level of fluorescence on glass and PLGA-coated cover slips after washes (washes W1-W4 incl. overnight soak): did not decrease noticeably
